Data as given in PubChem BioAssay AID1259414 (Drosophila RNAi Screening Center, 2018)
Screen: 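Genome-wide screen for host control of endosymbiont load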 (primary screen). System: Drosophila JW18 cells infected with Wolbachia. Knock-down reagent: long dsRNA against Drosophila genes, 0.25 µg dsRNA per well of a 384-well plate. Time to read-out: 5 days. Challenge: cells persistently infected with Wolbachia before knock-down; no added drug. Detection: 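Automated imaging of bacterial rRNA staining divided by host cell count, reported as plate-normalised robust z-score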. Direction: Wolbachia per cell robust z: higher = more Wolbachia per host cell than the plate typical. Hit rule: 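Active if absolute robust z reaches 1.5 in two or more of three replicates, leaving out multi- or no-target dsRNAs, genes unexpressed in JW18 and A1 wells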.
The deposit covers about 24,000 reagents; this is an unselected part of those that have a named target and a result. In the full data, about 1,210 (5%) are marked active. 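Inactive calls also include excluded dsRNAs with several or no targets, genes unexpressed in JW18, and well A1, regardless of score.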 A plus sign joins genes that one reagent is predicted to hit.

| target gene | amplicon | Wolbachia per cell robust z, rep 1 | Wolbachia per cell robust z, rep 2 | Wolbachia per cell robust z, rep 3 | Outcome |
| --- | --- | --- | --- | --- | --- |
| Ir67c (Ionotropic receptor 67c) | DRSC22097 | -0.567 | 0.983 | -0.694 | inactive |
| Naus (Nausicaa) | DRSC06011 | -0.699 | 0.614 | -1.17 | inactive |
| Naus (Nausicaa) | DRSC06469 | 0.896 | 1.66 | 1.22 | inactive |
| Naus (Nausicaa) | DRSC23606 | 0.0474 | -1.67 | 1.15 | inactive |
| CG14968 | DRSC08427 | 0.171 | 0.276 | 0.331 | inactive |
| CG14968 | DRSC28793 | 0.386 | 0.0127 | -1.2 | inactive |
| lncRNA:CR42765 (long non-coding RNA:CR42765) | DRSC41429 | -1.44 | -0.416 | 0.459 | inactive |
| Obp58c (Odorant-binding protein 58c) | DRSC04166 | -0.15 | -0.0499 | 0.476 | inactive |
| Adar (Adenosine deaminase acting on RNA) | DRSC17725 | -0.253 | 0.263 | 0.26 | inactive |
| CG42299 + CG42300 | DRSC19680 | -1.45 | 0.621 | 0.283 | inactive |
| lectin-33A | DRSC02529 | -1.25 | -3.21 | -2.31 | active |
| lectin-33A | DRSC22116 | -0.115 | -0.495 | -0.556 | inactive |
| Tctp (Translationally controlled tumor protein) | DRSC15649 | 0.43 | -5.04 | -5.68 | inactive |
| Tctp (Translationally controlled tumor protein) | DRSC29100 | 0.492 | 0.51 | -0.811 | inactive |
| RhoGAP5A (Rho GTPase activating protein at 5A) | DRSC18294 | -1.14 | -0.808 | -8.16 | inactive |
| RhoGAP5A (Rho GTPase activating protein at 5A) | DRSC24778 | 0.552 | -1.52 | -1.32 | inactive |
| RhoGAP5A (Rho GTPase activating protein at 5A) | DRSC38990 | -4.22 | 0.359 | 0.871 | inactive |
| CG34223 | DRSC38881 | -1.04 | -0.503 | -0.198 | inactive |
| CG31784 | DRSC01574 | 0.24 | 0.101 | -0.494 | inactive |
| Pex14 (Peroxin 14) | DRSC11754 | -3.11 | -1.29 | 0.714 | inactive |
| Pex14 (Peroxin 14) | DRSC28339 | -0.672 | -1.27 | -1.08 | inactive |
| CG14499 | DRSC06470 | 0.0836 | -0.272 | -0.399 | inactive |
| CG8149 | DRSC16391 | 0.459 | -0.73 | -2.3 | inactive |
| CG32170 | DRSC09452 | 0.622 | 0.454 | 0.915 | inactive |
| CG4151 | DRSC18351 | 0.26 | 0.963 | 0.875 | inactive |
| CG11437 | DRSC11659 | 0.639 | 0.163 | -0.062 | inactive |
| CkIIbeta (Casein kinase II beta subunit) | DRSC20230 | 1.01 | 0.307 | 0.958 | inactive |
| NaPi-III (Na[+]-dependent inorganic phosphate cotransporter type III) | DRSC10893 | -0.261 | -2.12 | -0.408 | inactive |
| NaPi-III (Na[+]-dependent inorganic phosphate cotransporter type III) | DRSC22953 | 0.337 | -0.103 | 1.15 | inactive |
| NaPi-III (Na[+]-dependent inorganic phosphate cotransporter type III) | DRSC28299 | -1.36 | -0.331 | 0.194 | inactive |
| NaPi-III (Na[+]-dependent inorganic phosphate cotransporter type III) | DRSC28977 | 0.697 | -0.151 | -3.56 | inactive |
